In article PMC4125234, “Improving the Anti-Toxin Abilities of the CMG2-Fc Fusion Protein with the Aid of Computational Design” (2014):

Assays:
CMG2-Fc (Y158Q) (human) = CMG2-Fc (Y158Q) (human) (UniProt P58335); experiment: BLI
CMG2-Fc (E117Q) (human) = CMG2-Fc (E117Q) (human) (UniProt P58335); experiment: BLI

“protective antigen (PA) of anthrax toxin (natural protein)” gave a Kd (CMG2-Fc (Y158Q) (human)) of 0.76 nM, a koff (CMG2-Fc (Y158Q) (human)) of 8.47e-06 s⁻¹ and a kon (CMG2-Fc (Y158Q) (human)) of 11100 M⁻¹ s⁻¹. For the same substance, the Kd (CMG2-Fc (E117Q) (human)) was 0.2 nM, the koff (CMG2-Fc (E117Q) (human)) was 3.93e-06 s⁻¹ and the kon (CMG2-Fc (E117Q) (human)) was 19400 M⁻¹ s⁻¹.
